## HIV-1 5' UTR: DMS reactivities by position

Source: Ye et al. 2022 (doi:10.1038/s41594-022-00746-2), supplementary data.

RNA: 5' end of the HIV-1 NL4-3 genome, made in vitro. Positions 1-437 read:
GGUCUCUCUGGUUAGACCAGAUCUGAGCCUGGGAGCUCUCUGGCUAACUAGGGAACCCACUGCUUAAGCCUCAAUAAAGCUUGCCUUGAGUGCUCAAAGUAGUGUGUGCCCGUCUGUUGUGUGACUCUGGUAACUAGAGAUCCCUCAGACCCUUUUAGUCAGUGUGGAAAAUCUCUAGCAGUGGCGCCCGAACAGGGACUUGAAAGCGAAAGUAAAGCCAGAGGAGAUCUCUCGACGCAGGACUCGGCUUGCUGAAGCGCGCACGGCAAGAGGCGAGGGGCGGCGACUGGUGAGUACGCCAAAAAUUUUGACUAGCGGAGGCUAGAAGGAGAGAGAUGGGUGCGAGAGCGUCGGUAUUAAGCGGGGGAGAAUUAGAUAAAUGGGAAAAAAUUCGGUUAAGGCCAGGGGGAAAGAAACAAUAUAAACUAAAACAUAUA

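Mutant RNA libraries with 1G, 2G or 3G starts, with or without cap, were folded at 37 °C for 30 min. High salt was 300 mM KCl and 5 mM MgCl2, low salt 40 mM KCl and 0.1 mM MgCl2; monomer and dimer were parted on a native gel. Gel slices were treated with 170 mM dimethyl sulfate for 15 min at 37 °C and read by mutational profiling against an ethanol control.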

Scale: normalised reactivity, A and C only; low values point to paired or protected bases, higher values to unpaired ones.
One numbering serves 1G, 2G and 3G.
A position is written with its base.

position,3G capped low-salt dimer,2G uncapped low-salt dimer,2G uncapped high-salt monomer
C29,0.08,0.10,0.09
C36,0.03,0.05,0.03
C48,0.03,0.09,0.03
C72,0.14,0.11,0.08
C84,0.36,0.71,0.50
C111,0.12,0.22,0.30
A132,0.43,0.51,0.67
C134,0.18,0.16,0.15
C146,0.12,0.12,0.13
A149,0.07,0.07,0.10
A177,0.27,0.25,0.24
C187,0.03,0.04,0.03
C188,0.05,0.08,0.06
C193,0.91,0.81,0.83
A204,0.66,0.72,0.73
C207,0.46,0.63,0.42
A210,0.43,0.50,0.64
A211,0.45,0.53,0.43
C219,0.04,0.06,0.04
C231,0.14,0.12,0.17
C233,0.18,0.17,0.27
A235,0.68,0.76,0.70
C236,0.45,0.48,0.49
A239,0.68,0.78,0.63
A242,1.00,1.06,0.91
C245,0.08,0.07,0.25
C248,0.03,0.04,0.05
C252,0.06,0.06,0.20
A256,0.93,1.08,0.87
C262,0.24,0.25,0.40
A263,0.78,0.84,0.27
C267,0.05,0.07,0.14
A276,0.38,0.41,0.98
A327,1.04,1.12,1.02
A330,0.79,0.89,0.90
A334,0.34,0.42,0.53
A379,0.57,0.63,0.59
A380,0.79,0.86,0.85
A390,0.90,0.94,0.92
A412,0.49,0.51,0.52
A414,0.46,0.52,0.49
A424,0.31,0.37,0.42
A429,0.67,0.76,0.72
C432,0.83,0.95,0.91
A433,0.69,0.76,0.73
A435,0.47,0.52,0.52

2 of these entries, quoted again:

| position | 3G capped low-salt dimer | 2G uncapped low-salt dimer | 2G uncapped high-salt monomer |
|---|---|---|---|
| A330 | 0.79 | 0.89 | 0.90 |
| A210 | 0.43 | 0.50 | 0.64 |